Counter-ions that a name gives are not always drawn.
Test system: HCV genotype-1
Experiment: Clinical study with treatment-naive patients: monotherapy 14 days, then triple combination with P+R 14 days
Details: once-daily monotherapy
Protocol: Plasma HCV-RNA levels were measured with Roche COBAS® TaqMan® assay (LLOQ 25 IU/m L). After Day 28, at the discretion of the investigator, patients could continue to receive standard of care treatment, i.e., P+R.

Compound: C=C[C@@H]1C[C@]1(NC(=O)[C@@H]1C[C@H](Oc2cc(-c3csc(NC(=O)C(C)C)n3)nc3c(Br)c(OC)ccc23)CN1C(=O)[C@@H](NC(=O)OC1CCCC1)C(C)(C)C)C(=O)O [Compound (1) sodium salt]
- Onset of anti-viral resistance formation and increase in viral load: 5 to 6 days
